Laboratory results published in ChEMBL document CHEMBL4715793, “Design and Synthesis of Cajanine Analogues against Hepatitis C Virus through Down-Regulating Host Chondroitin Sulfate N-Acetylgalactosaminyltransferase 1” (J Med Chem, 2016).

Assay: Resistance ratio of EC50 for antiviral activity against HCV J6/JFH/JC1 harboring A156T mutant infected in human Huh7.5 cells to EC50 for antiviral activity against wild-type HCV J6/JFH/JC1 infected in human Huh7.5 cells
Format: functional

`CCC[C@H](NC(=O)[C@@H]1[C@H]2CCC[C@H]2CN1C(=O)[C@@H](NC(=O)[C@@H](NC(=O)c1cnccn1)C1CCCCC1)C(C)(C)C)C(=O)C(=O)NC1CC1` showed a Ratio EC50 of 31.
